Tested on: HIV-1SF162
Assay: HIV p24 ELISA in endothelial cells
Type: cell-based
Settings: HIV-infected endothelial cells; 250 μg/mL SP16; 12 h
Experimental: Human primary cells obtained from ScienCell Research Laboratories (Carlsbad, CA, USA) included primary astrocytes (catalog # 1800), primary brain microvascular endothelial cells (BMECs) (catalog # 1710), and primary pericytes (catalog # 1200). Human cell lines obtained from American Type Culture Collection (ATCC; Manassas, VA, USA) included microglia (catalog # CRL-3304). Cells were seeded in 24-well plates coated with poly-L-lysine (0.1 mg/mL) and maintained for 5–10 days at 37 °C and 5% CO2 [39, 40, 41, 42, 43]. Cells were maintained in their respective growth medium supplemented with fetal bovine serum-FBS (10%) procured from Hyclone (Logan, UT, USA), and penicillin/streptomycin (1%) procured from Invitrogen (Waltham, MA, USA). Media was discarded every other day, and fresh media was added.
The HIV-1SF162 strain, from the macrophage lineage isolated from Dr. Jay Levy, was obtained through the NIH (Germantown, MD, USA) Research and Reference Reagent Program. Cells were infected with 1 ng/mL of HIV (p24/10^6 cells) as performed previously. […]
Levels of cytokines and chemokines in cell supernatant and postmortem brain homogenates were measured using an ELISA kit from R&D Systems (Minneapolis, MN, USA) as per the manufacturer’s protocol. […] The optical density was read at A450 with wavelength correction at A570 on a Synergy HTX plate reader from BioTek (Winooski, VT, USA).

Compound: CCCC[C@H](NC(=O)[C@H](CC(C)C)NC(=O)[C@H](Cc1ccccc1)NC(=O)[C@@H](NC(=O)[C@H](Cc1ccccc1)NC(=O)[C@@H]1CCCN1C(=O)[C@H](CCCCN)NC(=O)[C@H](CC(N)=O)NC(=O)[C@H](Cc1ccccc1)NC(=O)[C@H](CCCCN)NC(=O)[C@@H](NC(C)=O)C(C)C)C(C)C)C(=O)N[C@H](C(=O)N[C@@H](CCC(=O)O)C(=O)N[C@@H](CCC(N)=O)C(=O)N[C@@H](CC(N)=O)C(=O)N[C@H](C(=O)N[C@@H](CCCCN)C(N)=O)[C@@H](C)O)[C@@H](C)CC [SP16]
- levels of HIV p24: Attenuation
